Experimental data published in article PMC9161444 (Langmuir, 2022).

Assays:
[1] = Lipid monolayer model, surface pressure change (Langmuir trough); settings: spread between DPPG and DPPC monolayer interactions
[2] = Selective index and averaged ratios from MIC, EC50 and CAC; settings: SI = sum of EC50 (HDFa, NIH/3T3, hRBC) / sum of MIC (E. coli, S. aureus, C. albicans)

CCCCCCCCCCCCCC[N+](C)(C)C.[Br-] [C14TAB, tetradecyltrimethylammonium bromide]
δ[Δπ] = ΔπDPPG – ΔπDPPC [1]: 5 mN/m and 6 ± 3 mN/m
selective index [2]: 0.9 ± 0.7

“And” between values parts separate entries of the source, which are not always exact repeats. Identical values can stand only once.
